Assay results from article PMC8807572, “The zebrafish embryo as an in vivo model for screening nanoparticle-formulated lipophilic anti-tuberculosis compounds” (Disease Models & Mechanisms, 2022).
Where “and” joins values, the source holds several entries; their conditions need not be identical. Equal entries are not always repeated.

Test system: intracellular Mm in murine BMDMs
Test: Anti-mycobacterial efficacy in M. marinum-infected BMDMs (CFU plating)
Type: cell-based, Mycobacterium marinum
Conditions: ratio of intracellular IC90 to extracellular MIC90

## COc1ccc2c(ccc3oc([N+](=O)[O-])cc32)c1 [C16, 7-methoxy-2-nitronaphtho[2,1-b]furan]
  IC90/MIC90: 0.82

## CO[C@H]1/C=C/O[C@@]2(C)Oc3c(C)c(O)c4c(O)c(c(/C=N/N5CCN(C)CC5)c(O)c4c3C2=O)NC(=O)/C(C)=C\C=C\[C@H](C)[C@H](O)[C@@H](C)[C@@H](O)[C@@H](C)[C@H](OC(C)=O)[C@@H]1C [RIF, rifampicin]
  IC90/MIC90: 9 and 8.78
